# Results taken from publication PMC6128652, “Structure of the Cladosporium fulvum Avr4 effector in complex with (GlcNAc)6 reveals the ligand-binding mechanism and uncouples its intrinsic function from recognition by the Cf-4 resistance protein” (PLoS Pathogens, 2018).
# B1: WT-CfAvr4 w/o tag: wild-type CfAvr4 with the purification tag removed (protein, UniProt Q00363 30-135, looked up)
# Race-specific elicitor A4: KAPKTQPYNPCKPQEVIDTKCMGPKDCLYPNPDSCTTYIQCVPLDEVGNAKPVVKPCPKGLQWNDNVGKKWCDYPNLSTCPVKTPQPKPKKGGVGGKKASVGHPGY
# B2: WT-CfAvr4: wild-type Avr4 effector protein of Cladosporium fulvum, CBM14 chitin-binding lectin, E. coli-produced mature form Lys30-Gln115 (protein)
# chain: KAPKTQPYNPCKPQEVIDTKCMGPKDCLYPNPDSCTTYIQCVPLDEVGNAKPVVKPCPKGLQWNDNVGKKWCDYPNLSTCPVKTPQ
# modifications: left off: 6x His (two), N-terminal, cleaved
# Test: Isothermal titration calorimetry (ITC) of CfAvr4 variants with chitin hexasaccharide
# Assay type: binding
# Settings: (GlcNAc)6 titrated into protein
# Experimental: A stock solution of the monomer of N-acetylglucosamine was prepared by dissolving the dry powder in a buffer containing 10 mM Bis-Tris, pH 6.5, 100 mM NaCl to a concentration of 0.100 g/L using analytic techniques. Standard solution of 0, 0.010, 0.025, 0.050, 0.075 g/L were prepared by serial dilutions. Using glass test tubes and pipets, 100 μL of each standard was mixed with 300μL of concentrated sulfuric acid and vortexed for 10 sec to mix. Solutions were incubated at RT for 10 min and then placed on ice to stop the reaction. […] Analytically prepared solution of the di- and tri-saccharide scaled linearly to the calibration curve. To determine the concentration of the chitin hexasaccharide solutions used in ITC, the solutions were diluted into the dynamic range of the calibration curve (S12 Fig) and subjected to the above procedure.
# All ITC experiments were performed on a TA Instruments low volume NanoITC with a 186uL reaction cell and a reference cell filled with degassed Milli-Q grade water. Reactions were run in a buffer containing 10mM Bis-Tris, pH 6.5, 100 mM NaCl. […] The integrated heats, after correction for the heat of dilution were analyzed using the NanoAnalyze software from ITC Technologies. […]
molecule,measurement,value
B1,n (stoichiometric ratio),1.09 ± 0.12
B2,n (stoichiometric ratio),1.09 ± 0.12
